Pooled drug test results. Numbers come from NIAID ChemDB, via PubChem.

Shared fields: tests in culture; agent: HIV-1; cells: CEM; read-out: EC50

ECn: concentration that inhibits the pathogen or its effect by n%. Blank or dashed fields: not listed here. Conditions beyond the fields shown may differ between rows.

smiles | strain or isolate | changes | read by | conditions | result
Nc1nc2c(ncn2[C@H]2C=C[C@@H](CO)C2)c(=O)[nH]1 |  |  | cytopathic effect / XTT |  | 0.51 µg/mL
CC[C@H](C)OC(=S)Nc1ccc(Cl)c(C(=O)OC(C)C)c1 |  | RT-Y181C | syncytia |  | 1.971 µM
O=C(NC(Cc1ccccc1)C(=O)C(=O)C(=O)N(CC1CCCC1)S(=O)(=O)c1ccccc1)O[C@H]1CCOC1 | IIIB |  | p24 |  | <1 µM
O=c1[nH]c(=S)cnn1[C@H]1C[C@H](O)[C@@H](CO)S1 | IIIB |  | syncytia |  | >100 µM
CCCCOC(=S)Nc1ccc(Cl)c(C(=O)OC(C)C)c1 | IIIB |  | syncytia |  | 0.1818 µM
Cc1cn([C@@H]2CC[C@H](COC(=O)CCCCCCCCC(=O)OC[C@H]3O[C@@H](n4cc(C)c(=O)[nH]c4=O)C[C@@H]3N=[N+]=[N-])O2)c(=O)[nH]c1=O | IIIB |  |  |  | 0.005 µM
CNc1ccc(C)cc1S(=O)(=O)c1ccccc1[N+](=O)[O-] |  |  | cytopathic effect / XTT |  | 1.02 µM
CC(=O)COc1cc(NC(=S)OC(C)C)ccc1Cl |  | RT-Y181C | syncytia |  | 24.85 µM
Nc1ccn(C(CF)CCCO)c(=O)n1 | IIIB |  | cytopathic effect |  | >100 µg/mL
Nc1cnn([C@H]2C[C@H](O)[C@@H](CO)S2)c(=O)n1 | IIIB |  | syncytia |  | >100 µM
C/C=C/COc1cc(NC(=S)OC(C)C)ccc1Cl |  | RT-L100I | syncytia |  | 1.334 µM
CC1(CO)CCC(Cn2cnc3c(N)nc(N)nc32)C1(C)C |  |  | cytopathic effect |  | 7 µg/mL
Cc1ccc(NC(=O)c2cc(S(=O)(=O)N3CCNNC3=O)c(S)cc2Cl)cc1 |  |  | cytopathic effect / XTT |  | 49.9 µM
CC(C)OC(=S)Nc1ccc(Cl)c(C(=O)OC2CC2)c1 |  | RT-L100I | syncytia |  | 2.868 µM
Cc1cn([C@@H]2CC[C@H](COC(=O)CCCCCCCCC(=O)OC[C@H]3O[C@@H](n4cc(C)c(=O)[nH]c4=O)C[C@@H]3F)O2)c(=O)[nH]c1=O | IIIB |  |  |  | 0.004 µM
CC(C)CN(CC(O)CCN1CCN(Cc2cccnc2)C[C@H]1C(=O)NC(C)(C)C)S(=O)(=O)c1ccccc1 | IIIB |  | p24 |  | <1 µM
O=[N+]([O-])c1ccccc1C1SCc2nc3ccccc3n21 | RF |  | cytopathic effect / MTT |  | 17.2 µM
CN1CCN(C(=O)c2ccc3c(=O)c4ccccc4[nH]c3c2)CC1 | IIIB |  | syncytia |  | 0.019 µM
CCOCn1c(Sc2ccccc2)c(CC)c(=O)[nH]c1=O |  |  | antigen |  | <0.04 µM
CCCCCCCCCCCCCCCCOP(=O)(OCCO[C@@H]1O[C@H](CO)[C@@H](O)[C@H](O)[C@@H]1O)OC[C@H]1O[C@@H](n2cc(C)c(=O)[nH]c2=O)C[C@@H]1N=[N+]=[N-] | LAV-Bru |  | RT activity | 26 d | >1 µM
O=C(c1ccccc1)N(CCc1ccccc1)C[C@H](O)CN(CC1CCCC1)S(=O)(=O)Cc1cnc[nH]1 | IIIB |  | p24 |  | <1 µM
Cc1cn(CCCC(O)CF)c(=O)[nH]c1=O | IIIB |  | cytopathic effect |  | >100 µg/mL
Cc1cc2c(cc1Cl)SC(C(=O)c1cccc([N+](=O)[O-])c1)=NS2(=O)=O |  |  | cytopathic effect / XTT |  | 77.5 µM
O=C(NCCc1ccccc1)c1cc2cc(O)c(O)cc2[nH]1 |  |  | cytopathic effect / MTT |  | >24 µM
CC1(CO)CCC(Cn2nnc3c(N)nc(N)nc32)C1(C)C |  |  | cytopathic effect |  | 22 µg/mL
O=C(O)/C=C/c1ccc(O)c(O)c1 | N1T |  | p24 |  | ~0.5 µg/mL
CCC(CC)OC(=O)c1cc(NC(=S)OC(C)C)ccc1Cl |  | RT-L100I | syncytia |  | 2.036 µM
Nc1nc2c(nc(Br)n2CCOCP(=O)(O)O)c(=O)[nH]1 | IIIB |  | syncytia | 4 d | >0.16 µg/mL
CC(C)OC(=O)Oc1cc(NC(=S)OC(C)C)ccc1Cl |  | RT-V106A | syncytia |  | 10.55 µM
Cc1cc2c(cc1Cl)SC(C(=O)c1ccccc1)=NS2(=O)=O |  |  | cytopathic effect / XTT |  | 80.9 µM
CCCOC(=S)Nc1ccc(Cl)c(C(=O)OC(C)C)c1 |  | RT-E138K | syncytia |  | 2.06 µM
O=C(NCCCCCCNC(=O)c1cc2cc(O)c(O)cc2[nH]1)c1cc2cc(O)c(O)cc2[nH]1 |  |  | cytopathic effect / MTT |  | >26 µM
C=C(C)COc1cc(NC(=S)OC(C)C)ccc1Cl |  | RT-L100I | syncytia |  | >3.335 µM
Cc1cc(Cl)cc2c1S(=O)(=O)N=C(C(=O)c1ccc(Cl)cc1)S2 |  |  | cytopathic effect / XTT |  | 256.7 µM
COc1ccc(S(=O)(=O)N(CCc2ccccc2)CC[C@H](O)CN(CC(C)C)S(=O)(=O)c2ccc(OC)cc2)cc1 | IIIB |  | p24 |  | <1 µM
CC(C)OC(=S)Nc1ccc(Cl)c(C(=O)OCC2CC2)c1 |  | RT-L100I | syncytia |  | 2.135 µM
CC(C)CN(CC(O)Cn1ccnc1C(=O)NC(C)(C)C)S(=O)(=O)c1ccccc1 | IIIB |  | p24 |  | <1 µM
O=C(Nc1ccccc1)c1cc(S(=O)(=O)N2CCNNC2=O)c(S)cc1Cl |  |  | cytopathic effect / XTT |  | 4.69 µM
O=C(NCCCCCCNC(=O)c1cc2cc3c(cc2[nH]1)OCO3)c1cc2cc3c(cc2[nH]1)OCO3 |  |  | cytopathic effect / MTT |  | >200 µM
CC(C)O/N=C/c1cc(NC(=S)OC(C)C)ccc1Cl |  | RT-V106A | syncytia |  | 1.36 µM
CCCCCCCCn1c(=O)cnn([C@H]2C[C@H](O)[C@@H](CO)S2)c1=O | IIIB |  | syncytia |  | >20 µM
CC(C)OC(=S)Nc1ccc(Cl)c(COC(C)(C)C)c1 |  | RT-E138K | syncytia |  | ≥31.66 µM
Nc1nc2c(ncn2[C@H]2C=C[C@@H](CO)C2)c(=O)[nH]1 | RF |  | cytopathic effect / XTT |  | 0.66 µg/mL
Cc1occc1C(=S)Nc1ccc(Cl)c(/C=N/OC(C)(C)C)c1 | IIIB | RT-E138K | syncytia |  | 0.214 µM
O=C(N[C@@H](Cc1ccccc1)C(=O)C(F)(F)CN(Cc1ccccc1)S(=O)(=O)c1ccccc1)OC1COCOC1 | IIIB |  | p24 |  | <1 µM
CCCCC(CC)COC(=O)c1cc(NC(=S)OC(C)C)ccc1Cl | IIIB |  | syncytia |  | 0.207 µM
CC1(CO)CCC(Cn2cnc3c(=O)[nH]c(N)nc32)C1(C)C |  |  | cytopathic effect |  | >100 µg/mL
O=C(C1=NS(=O)(=O)c2ccc(Cl)cc2S1)c1ccc(Cl)cc1 |  |  | cytopathic effect / XTT |  | 72.7 µM
CC(C)OC(=O)Nc1ccc(Cl)c(C(=O)OC(C)C)c1 |  | RT-L100I | syncytia |  | 25.02 µM
Cc1cc2c(cc1Cl)SC(C(=O)c1ccc([N+](=O)[O-])cc1)=NS2(=O)=O |  |  | cytopathic effect / XTT |  | 52.5 µM
C=CCOc1cc(NC(=S)OC(C)C)ccc1Cl |  | RT-L100I | syncytia |  | 10.5 µM
O=c1cnn([C@H]2C[C@H](O)[C@@H](CO)S2)c(=O)[nH]1 | IIIB |  | syncytia |  | >100 µM
CCOC(=O)COc1cc(NC(=S)OC(C)C)ccc1Cl | IIIB |  | syncytia |  | 1.175 µM
O=C(C1=NS(=O)(=O)c2ccc(Cl)cc2S1)c1ccc2ccccc2c1 |  |  | cytopathic effect / XTT |  | 54.5 µM
CC(C)=CCOc1cc(NC(=S)c2ccoc2C)ccc1Cl | IIIB | RT-V179D | syncytia |  | 0.017 µM
O=C(NCc1ccc2c(c1)OCO2)c1cc2cc3c(cc2[nH]1)OCO3 |  |  | cytopathic effect / MTT |  | >200 µM
C#CCOc1cc(NC(=S)OC(C)C)ccc1Cl |  | RT-Y181C | syncytia |  | 10.57 µM

Again, the opening 6 rows:

| smiles | strain or isolate | changes | read by | conditions | result |
|---|---|---|---|---|---|
| Nc1nc2c(ncn2[C@H]2C=C[C@@H](CO)C2)c(=O)[nH]1 |  |  | cytopathic effect / XTT |  | 0.51 µg/mL |
| CC[C@H](C)OC(=S)Nc1ccc(Cl)c(C(=O)OC(C)C)c1 |  | RT-Y181C | syncytia |  | 1.971 µM |
| O=C(NC(Cc1ccccc1)C(=O)C(=O)C(=O)N(CC1CCCC1)S(=O)(=O)c1ccccc1)O[C@H]1CCOC1 | IIIB |  | p24 |  | <1 µM |
| O=c1[nH]c(=S)cnn1[C@H]1C[C@H](O)[C@@H](CO)S1 | IIIB |  | syncytia |  | >100 µM |
| CCCCOC(=S)Nc1ccc(Cl)c(C(=O)OC(C)C)c1 | IIIB |  | syncytia |  | 0.1818 µM |
| Cc1cn([C@@H]2CC[C@H](COC(=O)CCCCCCCCC(=O)OC[C@H]3O[C@@H](n4cc(C)c(=O)[nH]c4=O)C[C@@H]3N=[N+]=[N-])O2)c(=O)[nH]c1=O | IIIB |  |  |  | 0.005 µM |